This test concerns mammalian cell viability, cytotoxicity counter-screen. The test can be described thus: mammalian cell cytotoxicity, dose response, cytotoxicity control for M. tuberculosis inhibitor project (AID 435019).

Results on one molecule are retold here after PubChem BioAssay AID435019 (Southern Research Specialized Biocontainment Screening …, 2010).

As to `CN(C)C(=O)c1cc([N+](=O)[O-])cc2c1-c1c(cc([N+](=O)[O-])cc1[N+](=O)[O-])C2=O`, the half-maximal cytotoxic concentration (CC50) was 11.5 µM.
